The exact form of at least one protein or probe is not confirmed. Negatives hold for the conditions tested. For some assays here: At least one result comes from cells or an extract, where the contact may be indirect.
Assays:
[1] = test system: GST-AjYTHDF (Apostichopus japonicus); test: EMSA; conditions: 500 ng protein; none; m6A site A33 to U; printed 3' part has a T (GGCTAC), written U here; split over S36 and S37; EMSA: LightShift Chemiluminescent RNA EMSA Kit binding buffer (composition and pH not stated), room temperature 20 min, 6% native gel in 0.5x TBE; recombinant protein; protein details: GST; label: 3' biotin
[2] = test system: AjYTHDF (coelomocyte lysate) (Apostichopus japonicus); test: RNA pull-down, immunoblot; conditions: none, m6A site A33 to U, printed 3' part has a T (GGCTAC), written U here, split over S36 and S37, pull-down: Pierce Magnetic RNA-Protein Pull-Down Kit, 50 pmol RNA, lysate 1 h, protein in an extract, label: 3' biotin

“AGGUAUCAUUCAGCCCAAAUGCUGCUACACGGUCUCUGCUUACAGGCUAC [AjULK Mut probe]”: no binding [1]; no binding [2].

Source: article PMC10199899
